Results of unrelated studies side by side (data: NIAID ChemDB).

Shared fields: enzyme or target tests; agent: HIV-1; protein: Integrase; endpoint: IC50

ICn is the concentration giving n% inhibition. Lines come from different laboratories, so protocols vary. Two numbers with a dash give a range or band. An empty or dashed field is not shown.

compound | changes | method | value
CCCNS(=O)(=O)c1cccc2cnccc12 |  | strand transfer | 900 µM
N#C/C(=C\c1ccc(O)c(O)c1)C(=O)c1ccc(O)c(O)c1 |  | strand transfer | 0.5 µM
Cc1cc2c(cc1Cl)SC(C(=O)c1ccc(Cl)c(Cl)c1)=NS2(=O)=O | INTG-C65S | strand transfer | 10 µM
N#C/C(=C\c1ccc(O)c(O)c1)C(=O)OCc1ccccc1COC(=O)/C(C#N)=C/c1ccc(O)c(O)c1 |  | disintegration | 5.6 µM
CC(=O)N1CCCC(n2c(=O)c(O)c3n(c2=O)CCN(Cc2ccc(F)cc2)C3=O)C1 |  | strand transfer | <10 µM
O=c1ccn2ccn(Cc3ccc(Cl)c(Cl)c3)c(=O)c2c1O |  | ELISA | <0.01 µM
O=C(O)C(=O)/C=C(\O)c1cn(Cc2ccc(F)cc2)c2ccc(OCc3ccc(F)cc3)cc2c1=O |  | 3′ processing | 3 µM
O=C1c2c(O)c3n(c2CCN1Cc1ccc(F)cc1)CCN(Cc1ccc(F)cc1)C3=O |  | strand transfer | <1 µM
N#C/C(=C\c1ccc(O)c(O)c1)C(=O)NCCCCCCCCCCNC(=O)/C(C#N)=C/c1ccc(O)c(O)c1 |  | 3′ processing / substrate cleavage | 5–10 µM
Cc1cc(=O)n(-c2cccc(Cl)c2)n1C(=O)c1ccco1 |  | 3′ processing | >1000 µM
CN(Cc1ccc2ccccc2c1)C(=O)/C=C(\O)C(=O)O |  | strand transfer | <70 µM
COC(=O)CNC(=O)c1cn2ccn(Cc3cccc(Cl)c3)c(=O)c2c(O)c1=O |  | ELISA | 0.01–0.1 µM
N#C/C(=C\c1ccc(O)c(O)c1)C(=O)NC1CCC(CC2CCC(NC(=O)/C(C#N)=C/c3ccc(O)c(O)c3)CC2)CC1 |  | 3′ processing / substrate cleavage | 5–10 µM
COc1ccc(C(=O)C2=NS(=O)(=O)c3cc(C)c(Cl)cc3S2)cc1 | INTG-C65S | strand transfer | 30 µM
CC(C)n1c(=O)c(O)c2n(c1=O)C(CCN1CCc3ccccc3C1)CN(Cc1ccc(F)cc1)C2=O |  | strand transfer | <10 µM
O=C1c2c(O)c(=O)c(-c3nccs3)cn2CCN1CCCc1ccc(Cl)c(F)c1 |  | ELISA | 0.01–0.1 µM
Cc1cc(CNC(=O)c2nc3n(c(=O)c2O)CCN(CC2CC2)CC3N(C)C(=O)C(=O)N(C)C)ccc1F |  | ELISA | <10 µM
O=C(O)CCc1ccc(N=Nc2c(S(=O)(=O)O)cc3cc(NC(=O)Nc4ccc5c(O)c(N=Nc6ccc(CCC(=O)O)cc6)c(S(=O)(=O)O)cc5c4)ccc3c2O)cc1 |  | 3′ processing | 0.5 µM
O=S(=O)(Nc1ccc(F)c(Cl)c1)c1cccc2cnccc12 |  | strand transfer | 850 µM
O=c1ccn2ccn(Cc3ccc(F)cc3)c(=O)c2c1O |  | ELISA | 0.01–0.1 µM
O=C1C(=O)N(Cc2cccc3cccnc23)c2ccccc21 |  | strand transfer | 700 µM
CN(C)C(=O)CN1CCn2c(nc(C(=O)NCc3ccc(F)cc3)c(O)c2=O)C1(C)C |  | ELISA | <10 µM
O=C(Nc1ccc2c(O)cc(S(=O)(=O)O)cc2c1)Nc1ccc2c(O)cc(S(=O)(=O)O)cc2c1 |  | 3′ processing | 4 µM
O=C(/C=C(\O)C(=O)O)NCc1cc(F)cc(F)c1 |  | strand transfer | <70 µM
N#C/C(=C\c1ccc(O)c(O)c1)C(=O)Nc1cccc(C(=O)O)c1 |  | strand transfer | 5–10 µM
CC(C)N(Cc1ccc(F)cc1)C(=O)/C=C(\O)C(=O)O |  | strand transfer | >70 µM
CC1(C)c2nc(C(=O)NCc3ccc(F)cc3)c(O)c(=O)n2CCN1Cc1nnco1 |  | ELISA | <10 µM
Cc1cc2c(cc1Cl)SC(C(=O)c1ccc3ccccc3c1)=NS2(=O)=O | INTG-C65S | 3′ processing | 30 µM
N#C/C(=C\c1ccc(O)c(O)c1)C(=O)NCCCCCNC(=O)/C(C#N)=C/c1ccc(O)c(O)c1 |  | 3′ processing / substrate cleavage | 5–10 µM
O=C1c2c(O)c(=O)nc(NCc3ccccc3)n2CCN1Cc1ccc(F)cc1 |  | strand transfer | <10 µM
O=C1c2c(O)c(=O)c(-c3cccnn3)cn2CCN1Cc1cccc(Cl)c1 |  | ELISA | 0.01–0.1 µM
CC(=O)/C=C/c1ccc(N=Nc2c(S(=O)(=O)O)cc3cc(NC(=O)Nc4ccc5c(O)c(N=Nc6ccc(/C=C/C(C)=O)cc6)c(S(=O)(=O)O)cc5c4)ccc3c2O)cc1 |  | strand transfer | 3.2 µM
N#C/C(=C\c1cc(O)c(O)c([N+](=O)[O-])c1)C(=O)NCCCNC(=O)/C(C#N)=C/c1cc(O)c(O)c([N+](=O)[O-])c1 |  | strand transfer | 1.9 µM
Cc1cc2c(cc1Cl)SC(C(=O)c1cccc([N+](=O)[O-])c1)=NS2(=O)=O | INTG-C65S | 3′ processing | 95 µM
O=C1c2c(O)c(=O)n(C3CCSc4ccccc43)c(=O)n2CCN1Cc1ccc(F)cc1 |  | strand transfer | <10 µM
CC(C)(C)NS(=O)(=O)c1ccccc1-c1cccc(C(=O)Nc2ccc(CCC(=O)O)cc2)c1 | T174I | strand transfer / fluorescence | 0.251 µM
CN(CCc1ccc(F)cc1)C(=O)/C=C(\O)C(=O)O |  | strand transfer | <70 µM
O=C1c2c(O)c(=O)ccn2CCN1CCCc1ccccc1 |  | ELISA | 0.01–0.1 µM
O=C1c2c(O)c(=O)n(C34CC5CC(CC(C5)C3)C4)c(=O)n2CCN1Cc1ccc(F)cc1 |  | strand transfer | <10 µM
CN(C)C(=O)C(=O)N1CCn2c(nc(C(=O)NCc3ccc(F)cc3)c(O)c2=O)C1(C)C |  | ELISA | <10 µM
O=C1c2c(O)c(=O)n(C3CCSCC3)c(=O)n2CCN1Cc1ccc(F)cc1 |  | strand transfer | <10 µM
O=C(NCC(F)(F)F)c1cn2ccn(Cc3cccc(Cl)c3)c(=O)c2c(O)c1=O |  | ELISA | 0.01–0.1 µM
O=C1c2c(O)c(=O)n(CCCn3ccnc3)c(=O)n2CCN1Cc1ccc(F)cc1 |  | strand transfer | <10 µM
O=C(O)/C=C/c1ccc(N=Nc2c(S(=O)(=O)O)cc3cc(NC(=O)C(=O)Nc4ccc5c(O)c(N=Nc6ccc(/C=C/C(=O)O)cc6)c(S(=O)(=O)O)cc5c4)ccc3c2O)cc1 |  | 3′ processing | 5 µM
COc1ccc(CNC(=O)/C=C(\O)C(=O)O)cc1 |  | strand transfer | <70 µM
CC(C)n1c(=O)c(O)c2n(c1=O)C(CCN(C)S(C)(=O)=O)CN(Cc1ccc(F)cc1)C2=O |  | strand transfer | <10 µM
CN(Cc1cccc(Cc2ccc(F)cc2)c1)C(=O)/C=C(\O)C(=O)O |  | strand transfer | <70 µM
CN(Cc1ccccc1)C(=O)c1cn2c(c(O)c1=O)C(=O)N(Cc1cccc(Cl)c1)CC2 |  | ELISA | <0.01 µM
O=C(Nc1ccc2c(O)c(N=Nc3ccc(Br)cc3Br)c(S(=O)(=O)O)cc2c1)Nc1ccc2c(O)c(N=Nc3ccc(Br)cc3Br)c(S(=O)(=O)O)cc2c1 |  | strand transfer | 0.6 µM
CC(C)n1c(=O)c(O)c2n(c1=O)CCN(Cc1ccc3ccccc3c1)C2=O |  | strand transfer | <10 µM
Cc1cc(Cl)cc2c1S(=O)(=O)N=C(C(=O)c1ccc(Cl)c(Cl)c1)S2 | INTG-C65S | strand transfer | 3 µM

Repeating the final 3 entries:

compound,changes,method,value
O=C(Nc1ccc2c(O)c(N=Nc3ccc(Br)cc3Br)c(S(=O)(=O)O)cc2c1)Nc1ccc2c(O)c(N=Nc3ccc(Br)cc3Br)c(S(=O)(=O)O)cc2c1,,strand transfer,0.6 µM
CC(C)n1c(=O)c(O)c2n(c1=O)CCN(Cc1ccc3ccccc3c1)C2=O,,strand transfer,<10 µM
Cc1cc(Cl)cc2c1S(=O)(=O)N=C(C(=O)c1ccc(Cl)c(Cl)c1)S2,INTG-C65S,strand transfer,3 µM